pIC50, pKd: −log10 of the molar value. Where “and” joins values, the source holds several entries; their conditions need not be identical. Equal entries are not always repeated. Where two headings read alike, the source gives them in different places.
Tests used:
LecB from PAO1 [1] = biological target: T1, LecB from PAO1 (Pseudomonas aeruginosa, UniProt Q9HYN5); assay: LecB competitive binding assay using fluorescence polarization; conditions: read-out: LecB IC50, LecB from strain PAO1
LecB from PAO1 [2] = biological target: T1, LecB from PAO1; conditions: read-out: LecB IC50, LecB from strain PAO1, cited from earlier work
BC2L-C-Nt [3] = biological target: T2, BC2L-C-Nt (Burkholderia cenocepacia, UniProt B4EH86); conditions: cited from earlier work
[4] = tested on: P. aeruginosa biofilm formation; conditions: in vitro; cited from earlier work
BC2L-C-Nt [5] = biological target: T2, BC2L-C-Nt; assay: ITC affinity for BC2L-C-Nt
BC2L-A = conditions: read-out: BC2L-A KD (ITC); cited from earlier work
BC2L-C-Nt [6] = biological target: T2, BC2L-C-Nt; conditions: read-out: BC2L-C-Nt IC50; SPR competition assay on a fucose chip; cited from earlier work
[7] = read-out: BC2L-C-Nt KD (ITC), ref Bermeo et al.[33]
[8] = read-out: BC2L-C-Nt KD (ITC), ref Mazzotta et al.[32]

Protein sequences, listed by entry. Tags and fused reporters are not part of them. Residues count along the entry.
UniProt Q9HYN5, 2-115 limits assumed: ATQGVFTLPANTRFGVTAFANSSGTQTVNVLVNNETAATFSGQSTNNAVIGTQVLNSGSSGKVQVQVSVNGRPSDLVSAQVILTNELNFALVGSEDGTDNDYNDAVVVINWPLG
UniProt B4EH86, 1-132 limits assumed: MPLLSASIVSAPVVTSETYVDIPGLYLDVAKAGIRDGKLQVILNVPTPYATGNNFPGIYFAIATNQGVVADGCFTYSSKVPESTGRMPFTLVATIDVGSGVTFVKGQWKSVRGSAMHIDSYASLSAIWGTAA

Compound: C[C@@H]1O[C@H](NC(=O)c2ccc(CN)cc2)[C@@H](O)[C@H](O)[C@@H]1O
- pIC50 (LecB from PAO1 [1]): 6.55 and 6.77

Compound: C[C@@H]1O[C@H](NC(=O)c2ccc(-c3ccccc3)cc2)[C@@H](O)[C@H](O)[C@@H]1O
- pIC50 (LecB from PAO1 [1]): 6.85

Compound: C[C@@H]1O[C@H](NC(=O)C2CCCN2)[C@@H](O)[C@H](O)[C@@H]1O (stereo partly drawn)
- pIC50 (LecB from PAO1 [1]): 5.95

Compound: C[C@@H]1O[C@H](CNC(=O)c2cc3ccccc3[nH]2)[C@@H](O)[C@H](O)[C@@H]1O
- pIC50 (LecB from PAO1 [2]; ref Sommer et al.[36]): 5.10

Compound: C[C@@H]1O[C@H](CNS(=O)(=O)c2ccc(C#CC(C)(C)O)s2)[C@@H](O)[C@H](O)[C@@H]1O
- pIC50 (LecB from PAO1 [2]; ref Sommer et al.[37]): 5.50

Compound: C[C@@H]1O[C@H](NC(=O)c2cccc(CN)c2)[C@@H](O)[C@H](O)[C@@H]1O
- pIC50 (LecB from PAO1 [1]): 6.55

Compound: C[C@@H]1O[C@H](NC(=O)c2ccc3[nH]ccc3c2)[C@@H](O)[C@H](O)[C@@H]1O
- pIC50 (LecB from PAO1 [1]): 7.05

Compound: CC(=O)NCc1cccc(-c2ccc(C(=O)N[C@H]3O[C@@H](C)[C@@H](O)[C@@H](O)[C@@H]3O)o2)c1
- pIC50 (LecB from PAO1 [1]): 6.19

Compound: C[C@@H]1O[C@H](NC(=O)c2ccc(C(C)(C)CN)cc2)[C@@H](O)[C@H](O)[C@@H]1O
- pIC50 (LecB from PAO1 [1]): 5.37
- pKd (BC2L-C-Nt [3]; [7]): < 2.70

Compound: CO[C@@H]1O[C@@H](C)[C@@H](O)[C@@H](O)[C@@H]1O
- inhibition of P. aeruginosa biofilm formation [4]: failed
- pKd (BC2L-C-Nt [3]; [8]): 2.57
- pKd (BC2L-C-Nt [3]; read-out: BC2L-C-Nt KD (ITC)): 2.57

Compound: H-type 1 trisaccharide
- pKd (BC2L-C-Nt [3]; read-out: BC2L-C-Nt KD (ITC)): 4.60

Compound: CNCc1ccc(C(=O)N[C@H]2O[C@@H](C)[C@@H](O)[C@@H](O)[C@@H]2O)cc1
- pIC50 (LecB from PAO1 [1]): 6.64
- pKd (BC2L-C-Nt [3]; [7]): < 2.70

Compound: C[C@@H]1O[C@H](NC(=O)c2ccc3cc[nH]c3c2)[C@@H](O)[C@H](O)[C@@H]1O
- pIC50 (LecB from PAO1 [1]): 7.30
- affinity for BC2L-C-Nt, fold weaker than regioisomer 9 (BC2L-C-Nt [5]): 5 fold
- pKd (BC2L-C-Nt [3]; [7]): < 2.70

Compound: OC[C@H]1OC(O)[C@@H](O)[C@@H](O)[C@@H]1O (stereo partly drawn)
- pKd (BC2L-A): 5.55

Compound: C[C@@H]1O[C@H](CNS(=O)(=O)c2ccc(C#Cc3ccccc3)s2)[C@@H](O)[C@H](O)[C@@H]1O
- pIC50 (LecB from PAO1 [2]; ref Sommer et al.[37]): 5.82

Compound: C[C@@H]1O[C@H](NC(=O)c2ccc(-c3cccc(CN)c3)o2)[C@@H](O)[C@H](O)[C@@H]1O
- pIC50 (BC2L-C-Nt [6]): 3.99
- pIC50 (LecB from PAO1 [1]): 6.46
- pKd (BC2L-C-Nt [3]; [8]): 3.80

Reference: publication PMC12067436, “Toward Dual-Target Glycomimetics against Two Bacterial Lectins to Fight Pseudomonas aeruginosa–Burkholderia cenocepacia Infections: A Biophysical Study” (2025)
